From US7371755B1 (Biota Scientific Management Pty Ltd., priority 1999, dated 2008)

How the values were obtained:
Conditions in all cases: selectivity index = CC50 or MTC divided by EC50
HRV type 2 = assay: Inhibition of viral cytopathic effect (CPE), HRV type 2 in KB cells; type: cell-based, human rhinovirus
HRV type 1A = assay: Inhibition of viral cytopathic effect (CPE), HRV type 1A in MRC-5 cells; type: cell-based, human rhinovirus
Coxsackie A21 = assay: Activity against Coxsackie A21 in mammalian cell culture assay; type: cell-based
Protocol: (§1) Activity against Enteroviruses in Mammalian Cell Culture Assays Compounds 50 and 56 of the Invention were Tested Against Other Picornaviruses Using Similar cell based assays to those described in example 30 above and the results are shown in Table 6 below: […]

Echo 21 = assay: Activity against Echo 21 in mammalian cell culture assay; type: cell-based
Protocol: as §1

Enterovirus 70 = assay: Activity against Enterovirus 70 in mammalian cell culture assay; type: cell-based
Protocol: as §1

SMILES | Activity on Rhinovirus Type 2 SI (HRV type 2) | Activity on Rhinovirus Type 1A SI (HRV type 1A) | Activity on Coxsackie A21 SI (Coxsackie A21) | Activity on Echo 21 SI (Echo 21) | Activity on Enterovirus 70 SI (Enterovirus 70)
COCc1cc(CCCOc2c(C)cc(-c3ccccc3)cc2C)on1 [Compound 6, 3-(methoxymethyl)-5-[3-[2,6-dimethyl-4-phenylphenoxy]-propyl]-isoxazole] | >1000 | >320 |  |  | 
Cc1cc(-c2ccccc2)cc(C)c1OCCCc1cc(COCCOCCOCCO)no1 [Compound 8] | 5000 | 38.61 |  |  | 
Cc1cc(-c2ccccc2)cc(C)c1OCCCc1cc(COCCOCCOCCOCCOCCOCCO)no1 [Compound 10] | 50 |  |  |  | 
CC(=O)NCCOCCOCc1cc(CCCOc2c(C)cc(-c3ccccc3)cc2C)on1 [Compound 19] | >400 | 6.66 |  |  | 
Cc1cc(-c2noc(C(F)(F)F)n2)cc(C)c1OCCCc1cc(COCCOCCOCCO)no1 [Compound 24] | >30 | 25.71 |  |  | 
Cc1cc(-c2ccccc2)cc(C)c1OCCCc1cc(COCCOCCOCCOCc2cc(CCCOc3c(C)cc(-c4ccccc4)cc3C)on2)no1 [Compound 32, 1,8-bis-[5-[3-[2,6-dimethyl-4-phenylphenoxy]-propyl]-isoxazolyl-3-methyloxy]-3,6-dioxaoctane] | >50 | >156.32 |  |  | 
Cc1cc(-c2ccccc2)cc(C)c1OCCCc1cc(COCCOCCOCCOCCOCCOCCOCc2cc(CCCOc3c(C)cc(-c4ccccc4)cc3C)on2)no1 [Compound 34] | >5 |  |  |  | 
Cc1cc(-c2ccccc2)cc(C)c1OCCCc1cc(COCCOCCOCCOCCNC(=O)Nc2ccc(Cc3ccc(NC(=O)NCCOCCOCCOCCOCc4cc(CCCOc5c(C)cc(-c6ccccc6)cc5C)on4)cc3)cc2)no1 [Compound 48] | >8 | 7.75 |  |  | 
Cc1cc(-c2noc(C(F)(F)F)n2)cc(C)c1OCCCc1cc(COCCOCCOCc2cc(CCCOc3c(C)cc(-c4noc(C(F)(F)F)n4)cc3C)on2)no1 [Compound 50, 1,5-bis-[5-[3-[2,6-dimethyl-4-(5-trifluoromethyl-1,2,4-oxadiazolyl)phenoxy]-propyl]-isoxazolyl-3-methyloxy]-3-oxapentane] | 100 | 167 | >143.03 | >10000 | 
Cc1cc(-c2noc(C(F)(F)F)n2)cc(C)c1OCCCc1cc(COCCOCCOCCOCCOCc2ccc(COCCOCCOCCOCCOCc3cc(CCCOc4c(C)cc(-c5noc(C(F)(F)F)n5)cc4C)on3)cc2)no1 [Compound 56] | 22 | 6 | 30.51 | 3000 | >17.3
CC(C)S(=O)(=O)n1c(N)nc2ccc(/C(=N/O)c3ccccc3)cc21 [Enviroxime] |  | 75.91 | 24.25 | 15 | 19.35
CCOC(=O)c1ccc(OCCC2CCN(c3ccc(C)nn3)CC2)cc1 [Pirodavir, reference compound] | >300 | 555.74 |  |  | 
Cc1cc(CCCOc2c(C)cc(-c3noc(C(F)(F)F)n3)cc2C)on1 [Pleconaril, reference compound] | 10 | 500 | >15057 | >10000 | >178.89
NC(=O)c1ncn([C@@H]2O[C@H](CO)[C@@H](O)[C@H]2O)n1 [Ribavirin] |  | 51.03 |  | 19 | 
